Data: PMC8754118, “The PqsE-RhlR Interaction Regulates RhlR DNA Binding to Control Virulence Factor Production in Pseudomonas aeruginosa” (Microbiology Spectrum, 2022)

Target: T1, RhlR:mBTL (Pseudomonas aeruginosa) (UniProt P54292)
T1 sequence (looked up, limits assumed): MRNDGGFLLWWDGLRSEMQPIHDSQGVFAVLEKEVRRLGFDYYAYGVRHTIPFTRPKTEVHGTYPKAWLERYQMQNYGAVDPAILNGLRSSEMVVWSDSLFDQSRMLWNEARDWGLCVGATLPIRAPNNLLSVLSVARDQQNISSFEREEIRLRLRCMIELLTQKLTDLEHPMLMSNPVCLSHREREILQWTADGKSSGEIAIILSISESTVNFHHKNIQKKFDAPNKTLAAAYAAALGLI
Assay: EMSA
Conditions: without PqsE, recombinant protein, protein details: untagged, probe letters rebuilt from the primers and the genome

AGGCCTGCGAAGTGTCCTATAAGGACCGTGGCGGCAAATACCAGGGCCAGCGCGGCGTGACCCTGCCAAAAGCCTGACGCCAGAGCGTTTCGACACCGGAAACCGGGCCTGGCGCCCGGTTTTTTCATGCCTTTTCCGCCAACCCCTCGCTGTTCCCCGCCGGCCGCTCTGGCACGCCTTATCGCGGGCGGGCAGGGGCTTATGCGCAGGCGACCGCCCGTCCTGTGAAATCTGGCAGTTACCGTTAGCTTTCGAATTGGCTAAAAAGTGTTCATCGGCTACGCGTGAACACGGACGCCAATCGTTTGCGCAGGCCGATCTGCAAGACCCACACAAGCCCCTCGCCTGAAGGGGTACGCATCCGCCGTGGCTGGTCCGCGCGGATGGCCGCTGAGTTACTTGTCTGCCGTTCGAACAATAAGAACGAACTCTACGTAATGCCGGGATACCCGTGGCAGCGATAGCTGTTTGCCTGTTCGAAAATTTTTGGGAGGTGTGAA (double strand) [rhlA promoter EMSA probe]
binding result: binds

The exact form of at least one protein or probe is not confirmed. Where a protein sequence is shown, tags need not be part of it.
